Data from US7425576B2, “Compounds as inhibitors of hepatitis C virus NS3 serine protease” (Schering Corporation, priority 2004, dated 2008).

Protein sequences, listed by entry. Tags and fused reporters are not part of them. Residues count along the entry.
UniProt P27958, 1027-1657 limits assumed: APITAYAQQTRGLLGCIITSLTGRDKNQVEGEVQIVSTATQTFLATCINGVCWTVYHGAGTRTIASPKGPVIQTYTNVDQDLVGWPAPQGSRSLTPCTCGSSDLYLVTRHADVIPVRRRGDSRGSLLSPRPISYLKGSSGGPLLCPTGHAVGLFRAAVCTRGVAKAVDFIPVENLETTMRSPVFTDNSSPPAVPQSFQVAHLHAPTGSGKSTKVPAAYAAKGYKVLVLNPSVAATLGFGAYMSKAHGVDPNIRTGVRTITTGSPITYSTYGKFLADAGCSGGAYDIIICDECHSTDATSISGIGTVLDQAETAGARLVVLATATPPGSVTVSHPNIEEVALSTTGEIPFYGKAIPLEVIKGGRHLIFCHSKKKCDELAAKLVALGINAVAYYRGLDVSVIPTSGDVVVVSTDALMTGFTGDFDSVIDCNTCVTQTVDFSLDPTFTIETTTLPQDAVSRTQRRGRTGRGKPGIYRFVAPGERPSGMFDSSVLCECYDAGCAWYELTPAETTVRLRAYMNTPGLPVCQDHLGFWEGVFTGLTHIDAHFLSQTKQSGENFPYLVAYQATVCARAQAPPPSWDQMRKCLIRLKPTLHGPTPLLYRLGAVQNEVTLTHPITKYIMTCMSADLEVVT
UniProt P27958, 1658-1711 partner limits assumed: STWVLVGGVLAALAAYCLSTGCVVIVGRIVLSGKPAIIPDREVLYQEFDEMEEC

Target: Recombinant heterodimeric HCV NS3/NS4A protease (strain 1a) (Hepatitis C virus genotype 1a, UniProt P27958)
Assay: Spectrophotometric assay for HCV protease inhibitory activity (chromogenic ester substrates)
From the text: The present invention relates to novel HCV protease inhibitors. This utility can be manifested in their ability to inhibit the HCV NS2/NS4a serine protease.
Assay for HCV Protease Inhibitory Activity:
Spectrophotometric Assay: Spectrophotometric assay for the HCV serine protease can be performed on the inventive compounds by following the procedure described by R. Zhang et al, Analytical Biochemistry, 270 (1999) 268-275, the disclosure of which is incorporated herein by reference. The assay based on the proteolysis of chromogenic ester substrates is suitable for the continuous monitoring of HCV NS3 protease activity. […]
Enzyme Preparation: Recombinant heterodimeric HCV NS3/NS4A protease (strain 1a) is prepared by using the procedures published previously (D. L. Sali et al, Biochemistry, 37 (1998) 3392-3401). Protein concentrations are determined by the Biorad dye method using recombinant HCV protease standards previously quantified by amino acid analysis. […]
Protease Assay: HCV protease assays are performed at 30° C. using a 200 μl reaction mix in a 96-well microtiter plate. […] Proteolytic cleavage of the ester linkage between the Nva and the chromophore is monitored at the appropriate wavelength against a no enzyme blank as a control for non-enzymatic hydrolysis. […] Turnover numbers (kcat) are calculated assuming the enzyme is fully active. […]

Q: How did the Ki (Table 1A, Ki* range class) turn out when `C#CCCC(NC(=O)[C@@H]1[C@@H]2[C@H](CN1C(=O)[C@@H](NC(=O)N[C@H](COC(=O)NCC(C)C)C(C)(C)C)C1(C)CCCCC1)C2(C)C)C(=O)C(=O)NCCC` (single isomer, unassigned) was run?
A: < 75 nM

Q: What about the Ki (Table 6A, numeric Ki*) of the same compound?
A: 27 nM

Structures were worked out from names or drawings and are uncertain.
